Drawing on patent US20110172200A1, “USE OF INHIBITOR OF BETA-LACTAMASES AND ITS COMBINATION WITH BETA-LACTAM ANTIBIOTICS” (priority 2008, published 2011), this text covers IC50 for two compounds.

Amino acid sequences for entries named in this document (tags omitted). Residues count along the entry.
UniProt P62593, 24-286 limits assumed: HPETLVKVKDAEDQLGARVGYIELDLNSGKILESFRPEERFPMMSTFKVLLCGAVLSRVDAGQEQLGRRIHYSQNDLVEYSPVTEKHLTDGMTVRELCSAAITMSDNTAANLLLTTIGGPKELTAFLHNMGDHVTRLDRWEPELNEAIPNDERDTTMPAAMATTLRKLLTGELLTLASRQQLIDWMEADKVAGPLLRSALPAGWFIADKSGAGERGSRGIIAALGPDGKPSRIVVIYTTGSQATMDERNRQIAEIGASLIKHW
UniProt P0AD63, 22-286 limits assumed: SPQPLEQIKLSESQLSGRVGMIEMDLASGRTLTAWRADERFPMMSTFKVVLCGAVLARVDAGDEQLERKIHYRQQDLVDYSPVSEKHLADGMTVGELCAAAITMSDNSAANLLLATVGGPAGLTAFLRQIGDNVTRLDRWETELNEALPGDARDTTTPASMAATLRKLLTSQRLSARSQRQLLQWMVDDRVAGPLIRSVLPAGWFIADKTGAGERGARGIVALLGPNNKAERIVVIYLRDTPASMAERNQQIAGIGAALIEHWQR
UniProt P05364, 21-381 limits assumed: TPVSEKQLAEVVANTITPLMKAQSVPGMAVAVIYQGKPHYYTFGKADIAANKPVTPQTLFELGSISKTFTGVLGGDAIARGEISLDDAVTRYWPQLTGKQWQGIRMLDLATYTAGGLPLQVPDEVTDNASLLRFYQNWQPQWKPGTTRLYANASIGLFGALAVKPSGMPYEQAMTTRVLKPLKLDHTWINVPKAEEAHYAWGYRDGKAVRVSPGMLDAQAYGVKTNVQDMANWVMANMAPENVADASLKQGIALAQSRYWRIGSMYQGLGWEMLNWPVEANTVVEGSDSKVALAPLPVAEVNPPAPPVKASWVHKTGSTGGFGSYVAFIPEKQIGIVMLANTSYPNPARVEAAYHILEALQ

Like-named read-outs stand apart in the source and are kept apart here.

For experiment [1], the target named is class A beta-lactamase TEM-1 (Escherichia coli, UniProt P62593). Description: IC50 determination with nitrocefin as reporter substrate, TEM-1. The settings on record: read-out: IC50 TEM-1, 30 min pre-incubation at 37° C., phosphate buffer pH 7.0, nitrocefin.
The target in experiment [2] is class A beta-lactamase SHV-1 (Escherichia coli, UniProt P0AD63). Nature of the experiment: IC50 determination with nitrocefin as reporter substrate, SHV-1. Conditions: read-out: IC50 SHV-1, 30 min pre-incubation at 37° C., phosphate buffer pH 7.0, nitrocefin. Type of experiment: biochemical, E. coli. As to the method:
(§1) The IC50 value represents the concentration of inhibitor required to effect a 50% loss of activity of free enzyme. A standard test for the production of beta-lactamase involves use of the chromogenic cephalosporin, nitrocefin.
(§2) Homogeneously purified class A beta-lactamases TEM-1 and SHV-1 from E. coli and class C enzyme P99 from Enterobacter cloaca were employed in the assay.
(§3) All the enzymes and compounds were dissolved in 50 mM phosphate buffer pH 7.0 and all further dilutions were done with the same buffer solution. Enzyme and compound dilutions were pre-incubated for 30 min at 37° C. and in a final volume of 500 μl. Than 10 μl of 5 mM nitrocefin (reporter substrate) was added to the solution and the absorbance at 482 nm was measured during 2 to 5 minutes. The initial rate was calculated for all the different solutions. The […] values were determined as the inhibitor concentration that gave an initial hydrolysis rate of nitrocefin equal to 50% of the hydrolysis rate of nitrocefin in absence of inhibitor.
(§4) Representative compounds of formula (I) were evaluated as inhibitors of beta-lactamases of TEM-1 and SHV-1 (class A, penicillinase) from E. coli and P-99 (class C, cephalosporinase) from Enterobacter cloacae, by relative IC50 analysis using a procedure similar to that described above.

For experiment [3], the target named is class C beta-lactamase P99 (AmpC) (Enterobacter cloacae, UniProt P05364). Description: IC50 determination with nitrocefin as reporter substrate, P99. In kind it is biochemical. Conditions: read-out: IC50 P99 (AmpC), 30 min pre-incubation at 37° C., phosphate buffer pH 7.0, nitrocefin. As to the method:
as §1, §2, §3, §4

As usually defined, the IC50 is the concentration needed to halve the response being measured. With `CCOC1CCCC2C1=C(C(=O)O)N1C(=O)C(C(C)O)C21` (stereo not drawn), the IC50 in experiment [1] (tested form: Na salt) was found to be 785 µM; in experiment [2] (tested form: Na salt), 2830 µM; in experiment [3] (tested form: Na salt), 0.251 µM.
Take `C[C@@H](O)[C@H]1C(=O)N2C(C(=O)O)=C3C(OCCF)CCC[C@@H]3[C@H]12` (stereo partly drawn): the IC50 turned out to be 7.4 µM in experiment [1] (tested form: sodium salt), 223 µM in experiment [2] (tested form: sodium salt) and 0.149 µM in experiment [3] (tested form: sodium salt).
